Literature values as cited in article PMC4158172, “Effects of enzyme inducers efavirenz and tipranavir/ritonavir on the pharmacokinetics of the HIV integrase inhibitor dolutegravir” (European Journal of Clinical Pharmacology, 2014).

System: P-gp
Settings: not told; cited from earlier work

Substance: tipranavir/ritonavir [TPV/r]
- effect on intestinal P-gp: moderately inhibits
